Measurements as given in article PMC7400135, “3-(5-Nitrofuran-2-yl)prop-2-en-1-one Derivatives, with Potent Antituberculosis Activity, Inhibit A Novel Therapeutic Target, Arylamine N-acetyltransferase, in Mycobacteria” (Antibiotics, 2020).

Key:
[1] = system: murine macrophage RAW 264.7 cell line; settings: for SI RAW 264.7 / M. bovis BCG / SI RAW 264.7 / Mtb H37Rv: GIC for the cell line divided by MIC for the bacteria
[2] = system: human monocyte THP-1 cell line; settings: for SI THP-1 / M. bovis BCG / SI THP-1 / Mtb H37Rv: GIC for the cell line divided by MIC for the bacteria

SMILES | SI RAW 264.7 / MDR-TB [1] | SI RAW 264.7 / M. bovis BCG [1] | SI RAW 264.7 / Mtb H37Rv [1] | SI THP-1 / MDR-TB [2] | SI THP-1 / M. bovis BCG [2] | SI THP-1 / Mtb H37Rv [2]
O=C(/C=C/c1ccc([N+](=O)[O-])o1)c1ccc(N2CCOCC2)cc1 [Compound 1] | 128 | 2083 | 512 | 64 | 1042 | 256
O=C(/C=C/c1ccc([N+](=O)[O-])o1)c1ccc(N2CCCCC2)cc1 [Compound 2] | 64 |  | 4032 | 32 | 8333 | 2016
CCN(CC)c1ccc(C(=O)/C=C/c2ccc([N+](=O)[O-])o2)cc1 [Compound 3] | 64 | 1042 | 64 | 32 | 520 | 32
